The text below walks through data of paper PMC4063720.

Protein sequences, listed by entry. Tags and fused reporters are not part of them. Lines headed by an entry give the natural chain unless they say otherwise; changes in a name come on top.
UniProt Q9HUM0: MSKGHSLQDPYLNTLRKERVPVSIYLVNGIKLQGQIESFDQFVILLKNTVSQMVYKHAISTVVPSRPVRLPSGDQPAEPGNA

This data set has as its target Hfq (Pseudomonas aeruginosa PAO1) (UniProt Q9HUM0). The data set is described as follows: competition with a labelled probe. Conditions: unlabelled amiE -134-+20 vs 10 nM labelled amiE -134-+20, 20-fold Hfq-hexamer; EMSA: 10 mM Tris-HCl pH 8.0, 10 mM MgCl2, 60 mM NaCl, 10 mM NaH2PO4, 10 mM DTT, 25 ng tRNA in 10 ul, 37 C 30 min; 4% PAGE in Tris-borate; recombinant protein; residues 1-82; label: 5'-32P (EMSA); probe letters rebuilt from the primers and the genome.

The exact form of at least one protein or probe is not confirmed. At least one verdict rests on a figure or table, not on a statement of the authors.

For “GAUCAGGUCGUGCGCAUCAGCGUCGAUGUCGCGGGACCGAACCUAACGCAUACGUACAGAGCAAAUGGGCUCUCCCGGGGUUACCCGGGAGGGCCUUUUUUCGUCCCGAAAAAAUAACAACAAGAGGUGAUAUCCAUGCGUCACGGCGAUAUUUCCUGCAGAAAAAA [amiE -134-+20 RNA]”, the binding result is on record as “binds”.
